Experimental findings from patent US20180155411A1 are described below.

The assay has as its target VP4 of rotavirus strain WI61 (G9P[8]) (human rotavirus). In words: cell-based or functional assay.

B1: mAb #47 (antibody, V domains shown)
VH: QVQLQESGPGLVKPSETLSLTCSVSGGSISVYYWNWIRQSPGKGLEWIASMYYTGITNYNPSLKSRVTMSVDMSKNQFSLKLSSVTAADTAVYYCARTMGIDQNNRGWPPAGYYFGMDVWGQGTTVTVSS
VL: DIVMTQSPLSLPVTPGEPASISCRSSQSLLHSNGNNYLDWYLQKPGQSPQLLIYLGSNRASGVPDRFSGSGSGTDFTLKISRVEAEDVGIYYCMQALEASLTFGGGTKVEIK
As to B1, the minimum neutralizing concentration amounted to 78.1 ng/mL.
